The results in this text go back to ChEMBL document CHEMBL1789904, “Imaging of Plasmodium liver stages to drive next-generation antimalarial drug discovery” (Science, 2011).

The test system of the test is Plasmodium yoelii. Kind of test: NOVARTIS: Antimalarial liver stage activity measured as reduction in Plasmodium yoelii schizont area in HepG2-A16-CD81 cells by immuno-fluorescence, and median schizont size at 10uM compound concentration.

One may read the pIC50 as the negative decadic logarithm of the IC50, by convention in mol/L. A low value points to a high IC50.

pIC50: −log10 of the molar value.

The compound `CCCN(CCC)[P+](CC)(N(CCC)CCC)N(CCC)CCC` gave a pIC50 of 6.59.
